Test results: article PMC9500544, “Anti-Trichomonas gallinae activity of essential oils and main compounds from Lamiaceae and Asteraceae plants” (Frontiers in Veterinary Science, 2022)

Tested on: Trichomonas gallinae trophozoites
Test: Anti-trichomonal (AT) activity in vitro, MTT reduction assay on trophozoites
Assay type: cell-based
Conditions: SI = CC50 (Vero cells)/IC50 (T. gallinae)
Description: The AT activity assay was performed using round bottom microwell plates in quadruplicate. Each well had 150 μl of T. gallinae trophozoites in Trypticase-Yeast Extract-Maltose medium (TYM) with 10% fetal calf serum (Sigma, Madrid, Spain) at 500.000 trophozoites/ml ([29]). EOs and pure compounds were solved in DMSO (Sigma, Madrid, Spain) (<1% final concentration). […] Trophozoite viability was analyzed using the modified MTT colorimetric assay method as previously described in literature ([29]). […] Prior to reading, 100 μl of DMSO was added to each well to dissolve the formazan crystals. The plate was read in a spectrophotometer using a wavelength of 570 nm.
The percentage of AT activity was calculated as growth inhibition using the following formula: […]
Where Ap is the absorbance of the tested product, Ab the absorbance of the blank and Ac the absorbance of the control wells (culture without treatment). […]
IC50 anti-trichomonal activity and CC50 cytotoxic activity were determined from the dose-response experiment, employing a linear regression analysis (% cell viability on log dose).

SMILES: CC1(C)C(=O)[C@@]2(C)CCC1C2 [D-fenchone]
- SI, Selectivity index: > 1.62 and > 1.6

Several values for one entry are separate records, joined by “and”; a condition that tells them apart may be missing. Equal entries are not always repeated.
